According to publication PMC4428071, “Structural basis for epitope masking and strain specificity of a conserved epitope in an intrinsically disordered malaria vaccine candidate” (Scientific Reports, 2015):

How the values were obtained:
Conditions in all cases: both partners purified
[1] = biological target: T1, C-terminally His-tagged FC27 MSP2 (Plasmodium falciparum, FC27 allele); assay: SPR; MSP2 immobilised by conventional amide coupling to the chip in the absence of lipid; antibody flowed over
T1 construct: not shown: His6, C-terminal, kept
T1 chain: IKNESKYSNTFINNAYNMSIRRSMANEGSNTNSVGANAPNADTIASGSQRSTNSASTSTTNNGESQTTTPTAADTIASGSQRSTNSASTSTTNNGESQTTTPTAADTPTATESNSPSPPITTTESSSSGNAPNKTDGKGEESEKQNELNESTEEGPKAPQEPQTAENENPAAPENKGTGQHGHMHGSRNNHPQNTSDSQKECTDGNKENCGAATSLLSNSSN

[2] = biological target: T2, 3D7-MSP2_(14-30) (Plasmodium falciparum, 3D7, strain); assay: ITC; Microcal ITC-200; MSP2 or peptide titrated into 6D8 scFv or 6D8 IgG
T2 construct: source: synthetic peptide
T2 chain: NAYNMSIRRSMAESKPS

[3] = biological target: T3, full-length recombinant FC27 MSP2 (Plasmodium falciparum, FC27 allele); assay: as above
T3 chain: T1 chain

[4] = biological target: full-length recombinant 3D7 MSP2 (Plasmodium falciparum 3D7, UniProt P50498); assay: as above
[5] = biological target: T4, FC27-MSP2_(14-30) (Plasmodium falciparum, FC27 allele, strain); assay: as above
T4 construct: source: synthetic peptide
T4 chain: NAYNMSIRRSMANEGSN

[6] = biological target: T2, 3D7-MSP2_(14-30); assay: crystal structure; 6D8 Fv co-crystallised with synthetic peptides, hanging drop; molecular replacement; 1.2 to 1.7 A
[7] = biological target: T4, FC27-MSP2_(14-30); assay: as above

Measured: binding result

B1: mouse monoclonal antibody 6D8 (antibody, V domains shown)
VH: QVQLQQSGDELVKPGASVKLSCTVSGFNIKDDFIHWMKQRPEQGLEWIGRIDPANGYTKYAPKFQDKATMTADTSSNTAYLQLSSLASEDAAVYYCATYGVAYWGQGTLVTVSA
VL: DIVLTQSPASLAVSLGQRATISCKASQSVDHDGDSYMNWFQQKPGQSPKLLIYAASNLESGIPARFSGSGSGTDFTLNIHPVEEEDAATYYCQQTNEDPYTFGGGTKLEIK
notes: also called mAb 6D8; 6D8 IgG
not listed: [6] | [7]
binds: all other assays above

B2: 6D8 Fv (other, mouse)
VH: B1 VH
VL: B1 VL
notes: also called Fv region of mAb 6D8
binds: [6] | [7]

B3: 6D8 scFv (scFv, V domains shown)
VH: B1 VH
VL: B1 VL
binds: [2] | [3] | [4] | [5]
